A mixed list of measured activities; the numbers were collected in NIAID ChemDB.

Common to all: growth or infection tests; agent: Mycobacterium tuberculosis

Conditions beyond the fields shown may differ between rows. ECn is the concentration giving n% inhibition of infection, replication or growth. Percent inhibition refers to the dose given; in toxicity tests it is the harm to the cells. MIC bound: limit read from a one-dose screen.

C=CCOC(=O)c1c(C(=O)O)cccc1[N+](=O)[O-] ; strain: H37Rv ; endpoint: MIC ; result: >100 µg/mL
Cc1cc(N=Nc2ccc(Sc3ccc(N=Nc4ccc(O)c(C(=O)[O-])c4)cc3)cc2)c(N)c(N=Nc2ccc(C(=O)[O-])cc2)c1N.[Na+].[Na+] ; strain: H37Rv ; endpoint: MIC bound ; read by: BACTEC ; result: >12.5 µg/mL
CO[C@H]1/C=C/O[C@@]2(C)Oc3c(C)c(O)c4c(O)c(c(/C=N/N5CCN(C/C=C/c6ccccc6)CC5)c(O)c4c3C2=O)NC(=O)/C(C)=C\C=C\[C@H](C)[C@H](O)[C@@H](C)[C@@H](O)[C@@H](C)[C@H](OC(C)=O)[C@@H]1C ; strain: 3113 (rifampin-sensitive) ; endpoint: MIC ; result: 0.05 µg/mL
CCCCC(CC)CN1CN(CC(CC)CCCC)CC(C)(NCCNCCc2ccccc2F)C1 ; endpoint: MIC ; result: 25 µM
COC(=O)C(C)(C)NC(=O)C(Cc1ccccc1)NC(=O)C(C)(C)NC(=O)OCc1ccccc1 ; strain: H37Rv ; endpoint: inhibition ; read by: BACTEC ; tested at: 12.5 µg/mL ; result: 15%
CCOC(=O)Nc1cc(N(C)C)c([N+](=O)[O-])c(N)n1 ; strain: H37Rv ; endpoint: EC50 ; result: >12.5 µg/mL
O=C1C[C@@H](c2ccc(O)cc2)Oc2cc(O)c(-c3c(O)cc4c(c3O)C(=O)C[C@@H](c3ccc(O)cc3)O4)c(O)c21 ; endpoint: EC50 ; result: >12.5 µg/mL
C[C@H](O)CNCCNCCc1c[nH]c2ccccc12 ; endpoint: MIC ; result: 25 µM
CC(/C=C/c1ccccc1)=N\NC(=O)c1ccncc1 ; strain: H37Rv ; endpoint: inhibition ; read by: resazurin ; tested at: 6.25 µg/mL ; result: 97%
c1ccc2c(c1)CC(NCCNC13CC4CC(CC1C4)C3)C2 ; endpoint: MIC ; result: 50 µM
Cc1cc2c(=O)cc(-c3ccncc3)oc2c(C(=O)O)c1C ; strain: H37Rv ; endpoint: inhibition ; read by: BACTEC ; tested at: 12.5 µg/mL ; result: -4%
COc1ccc(Cc2ccc(OC)c([N+](=O)[O-])c2)cc1[N+](=O)[O-] ; strain: H37Rv ; endpoint: MIC ; result: >100 µg/mL
CCOC(=O)Nc1cc2c(c(N)n1)N=C(c1ccccc1)CCN2 ; strain: H37Rv ; endpoint: EC50 ; cell line: VERO ; result: <12.5 µg/mL
Cn1ccn(CCCCCCn2ccn(C)c2=S)c1=S ; strain: H37Rv ; endpoint: MIC bound ; read by: BACTEC ; result: >12.5 µg/mL
Nc1ccc(S(=O)(=O)c2ccc(Cl)cc2)cc1 ; strain: H37Rv ; endpoint: MIC ; result: 25 µg/mL
COc1ccccc1CCNCCNCCc1ccccc1Cl ; endpoint: MIC ; result: 50 µM
CCOc1ccc(N)c([N+](=O)[O-])c1 ; strain: H37Rv ; endpoint: MIC ; result: 25 µg/mL
CC(CNCCNC(C)(C)CO)c1ccccc1 ; endpoint: MIC ; result: 50 µM
COc1ccc(C2Oc3cc(OC)cc(OC)c3C(=O)C2Br)cc1 ; strain: H37Rv ; endpoint: EC50 ; result: >12.5 µg/mL
CCOC(=O)/C=C1/CCCn2c1ncc(C(=O)OCC)c2=O ; strain: H37Rv ; endpoint: inhibition ; read by: resazurin ; tested at: 6.25 µg/mL ; result: 36%
Cc1ccc(-c2ccccc2)n1-c1ccc(C(=O)O)cc1 ; strain: H37Rv ; endpoint: MIC ; result: 25 µg/mL
O=C1CCCN1CCCNCCNCc1ccccc1Sc1ccccc1CO ; endpoint: MIC ; result: 12.5 µM
Cc1ccccc1C(=O)O ; strain: H37Rv ; endpoint: MIC ; result: >100 µg/mL
O=C1c2cccnc2-c2nccc3c2c1nc1ccccc13 ; strain: H37Rv ; endpoint: MIC ; cell line: VERO ; read by: resazurin ; result: 0.05 µg/mL
CC(C)CCCC(C)C1CCC2C3CC=C4CC(C(=O)O)CCC4(C)C3CCC12C ; strain: H37Rv ; endpoint: MIC ; result: >100 µg/mL
CCOC(=O)Nc1cc(NCCc2ccccc2)c([N+](=O)[O-])c(N)n1 ; strain: H37Rv ; endpoint: EC50 ; result: <12.5 µg/mL
O=C(Nc1cc(S(=O)(=O)O)cc2cc(S(=O)(=O)O)cc(O)c12)c1ccc([N+](=O)[O-])cc1 ; strain: H37Rv ; endpoint: MIC ; result: >100 µg/mL
Cl.Cl.N=C(N)c1ccc2oc3ccc(C(=N)N)cc3c(=O)c2c1 ; strain: H37Rv ; endpoint: inhibition ; read by: BACTEC ; tested at: 12.5 µg/mL ; result: 3%
CC1(C)[C@H]2CC[C@@H](CNCCNCCC(c3ccccc3)c3ccccc3)[C@@H]1C2 ; endpoint: MIC ; result: 6.25 µM
O=C1C(Cl)=C(n2ccnc2)C(=O)c2ccccc21 ; strain: H37Rv ; endpoint: MIC bound ; read by: BACTEC ; result: >12.5 µg/mL
CCCCC(N)C(=O)O ; strain: H37Rv ; endpoint: MIC ; result: >100 µg/mL
c1ccc(CCCCNCCNC2CCCCCCC2)cc1 ; endpoint: MIC ; result: 25 µM
Nc1ccc(S(=O)(=O)c2ccncc2)cc1 ; strain: H37Rv ; endpoint: MIC ; result: 25 µg/mL
CCCCC(CC)CN1CN(CC(CC)CCCC)CC(C)(NCCNC2CCCc3ccccc32)C1 ; endpoint: MIC ; result: 50 µM
COc1ccc(C2SC(N)=Nc3c2c(C)nn3C(=O)c2ccccc2O)cc1 ; strain: H37Rv ; endpoint: inhibition ; read by: resazurin ; tested at: 6.25 µg/mL ; result: 26%
Cc1ccc(CNCCNC[C@]2(C)CCC[C@]3(C)c4ccc(C(C)C)cc4CC[C@@H]23)cc1 ; endpoint: MIC ; result: 25 µM
O=c1/c(=C/c2ccccc2[N+](=O)[O-])sc2nnc(-c3cccnc3)n12 ; strain: H37Rv ; endpoint: MIC bound ; read by: BACTEC ; result: >12.5 µg/mL
O=C1c2ccccc2-c2cccc3cccc1c23 ; strain: H37Rv ; endpoint: MIC ; result: 50 µg/mL
CCOC(=O)Nc1cc(NN)c([N+](=O)[O-])c(NC(=O)OCC)n1 ; strain: H37Rv ; endpoint: inhibition ; tested at: 12.5 µg/mL ; result: 0%
Cn1c(=O)cc2c3c(c(Br)cc(Br)c31)C(=O)c1ccccc1-2 ; strain: H37Rv ; endpoint: MIC ; result: >100 µg/mL
CC(C)(C)CC(C)(O)CN(CC(C)(O)CC(C)(C)C)C(=S)S ; strain: H37Rv ; endpoint: MIC ; read by: BACTEC ; result: 3.13 µg/mL
Fc1ccccc1CCNCCN1CCCC2CCCCC21 ; endpoint: MIC ; result: 50 µM
Cn1cc(NC(=O)Nc2cc(C(=O)Nc3ccc4cc(S(=O)(=O)O)cc(S(=O)(=O)O)c4c3)n(C)c2)cc1C(=O)Nc1ccc2cc(S(=O)(=O)O)cc(S(=O)(=O)O)c2c1 ; strain: H37Rv ; endpoint: inhibition ; read by: BACTEC ; tested at: 12.5 µg/mL ; result: 17%
CCN(CC)CCCSC(=N)N.Cl ; strain: H37Rv ; endpoint: MIC ; result: >100 µg/mL
Fc1ccc(CCNCCNCC2CCCO2)cc1 ; endpoint: MIC ; result: 50 µM
CCC1=NOC(C)C1C(=O)OCc1ccccc1 ; strain: H37Rv ; endpoint: inhibition ; read by: BACTEC ; tested at: 12.5 µg/mL ; result: 20%
Fc1ccccc1CCNCCNCCc1ccc(Cl)cc1Cl ; endpoint: MIC ; result: 50 µM
CCNC1=C(C)C(=O)c2c(c(COC(N)=O)c3n2CC(NC(C)=O)C3O)C1=O ; strain: H37Rv ; endpoint: inhibition ; read by: BACTEC ; tested at: 0.5 µM ; result: 0%
C=CCNCCNC(C)CO ; endpoint: MIC ; result: 50 µM
c1ccc(OCCOc2ccccc2)cc1 ; strain: H37Rv ; endpoint: MIC ; result: >100 µg/mL
O=C(/C=C/c1ccccc1)c1cc(-c2ccccc2)ccc1O ; strain: H37Rv ; endpoint: inhibition ; tested at: 12.5 µg/mL ; result: 68%
O=C(Nc1cccc(Cl)c1)C(=O)Nc1cccc(Cl)c1 ; strain: H37Rv ; endpoint: MIC ; result: >100 µg/mL
CCOC(=O)Nc1cc(NCC(=O)c2ccc(-c3ccccc3)cc2)c([N+](=O)[O-])c(N)n1 ; strain: H37Rv ; endpoint: EC50 ; result: >12.5 µg/mL
CCN(CC)CCSSCCN(CC)CC.Cl ; strain: H37Rv ; endpoint: MIC ; result: >100 µg/mL
CO[C@H]1/C=C/O[C@@]2(C)Oc3c(C)c(O)c4c(O)c(c5c(c4c3C2=O)NC2(CCN(CC(C)C)CC2)N=5)=NC(=O)/C(C)=C\C=C\[C@H](C)[C@H](O)[C@@H](C)[C@@H](O)[C@@H](C)[C@H](OC(C)=O)[C@@H]1C ; strain: 27 (rifampin-resistant) ; endpoint: MBC ; result: 0.4 µg/mL
CN[C@@H]1[C@H](O)[C@H](NC)[C@H]2O[C@@]3(O)C(=O)C[C@@H](C)O[C@H]3O[C@@H]2[C@H]1O ; strain: H37Rv ; endpoint: MIC ; read by: BACTEC ; result: ≥12.5 µg/mL
CCCCCNCCNCCc1ccc(F)cc1 ; endpoint: MIC ; result: 12.5 µM
CC(N)Cc1ccccc1 ; strain: H37Rv ; endpoint: MIC ; result: >100 µg/mL
CCOC(=O)c1nc(C)cnc1N ; strain: H37Rv ; endpoint: MIC bound ; read by: BACTEC ; result: >12.5 µg/mL
CS(=O)(=O)Nc1cccc2c(O)c(Cl)cc(Cl)c12 ; strain: H37Rv ; endpoint: MIC ; result: 50 µg/mL
CCCCCCCCCCCNCCNCc1cccc(F)c1 ; endpoint: MIC ; result: 50 µM
O=C1CC(c2ccccc2Br)Oc2ccccc21 ; strain: H37Rv ; endpoint: inhibition ; tested at: 12.5 µg/mL ; result: 23%
Cc1noc(NS(=O)(=O)c2ccc(NC(=S)/N=C/c3c(O)[nH]c(=O)[nH]c3=O)cc2)c1C ; strain: H37Rv ; endpoint: inhibition ; read by: BACTEC ; tested at: 12.5 µg/mL ; result: 11%
COc1ccc(CNCCNCc2ccc(OC(F)(F)F)cc2)c(OC)c1 ; endpoint: MIC ; result: 50 µM
CCN(CC)CCNc1c(O)cc(C)c2sc3ccccc3c(=O)c12 ; strain: H37Rv ; endpoint: inhibition ; read by: BACTEC ; tested at: 12.5 µg/mL ; result: 6%
Cl.ClCCCSCCN1CCSCC1 ; strain: H37Rv ; endpoint: MIC ; result: >100 µg/mL
COc1ccc(/C(CC2OC(=O)c3ccccc32)=N/NC(=O)C[N+](C)(C)C)cc1.[Cl-] ; strain: H37Rv ; endpoint: MIC bound ; read by: BACTEC ; result: >12.5 µg/mL
OC(c1ccccc1)(c1ccccc1)c1nc2ccccc2s1 ; strain: H37Rv ; endpoint: MIC ; result: >100 µg/mL